What all share (assay): cell-based or functional assay
The target in test [1] is SARS-CoV-2 spike protein, Delta variant (SARS-CoV-2).
Test [2] addresses SARS-CoV-2 spike (S) protein of Omicron sublineage BA.2.75 (G446S) (SARS-CoV-2, UniProt P0DTC2 14-1273).
Test [3] has as its target SARS-CoV-2 spike (S) protein of Omicron sublineage BJ.1 (R346T, V445P, G446S) (SARS-CoV-2, UniProt P0DTC2 14-1273).
The target of test [4] is SARS-CoV-2 spike (S) protein, Omicron sublineage BA.4.6 (R346T, F486V) (SARS-CoV-2, UniProt P0DTC2 14-1273).
Test [5] deals with SARS-CoV-2 spike (S) protein, Omicron sublineage BA.4.7 (R346S, F486V) (SARS-CoV-2, UniProt P0DTC2 14-1273).
Test [6] deals with SARS-CoV-2 spike (S) protein, Omicron sublineage BF.7 (R346T, F486V) (SARS-CoV-2, UniProt P0DTC2 14-1273).
The target of test [7] is SARS-CoV-2 spike (S) protein, Omicron sublineage BQ 1.1 (R346T, K444T, F486V) (SARS-CoV-2, UniProt P0DTC2 14-1273).

B1: E12 (antibody, V domains shown)
VH: EVQLVESGGGLIQPGGSLRLSCAASGVIVSYNYMNWVRQAPGKGLEWVSVIYSGGSTFYADSVRGRFTISRDNSKNTLYLQMNSLRAEDTAVYYCARDLGPAGAFDIWGLGTMVTVSS
VL: EIVLTQSPGTLSLSPGETATLSCRASQSFSSDLAWYQQKPGQAPRLLIYGASSRATGIPDRFSGSGSGTDFTLTISRLEPADFAVYYCQQYGSSPPVTFGGGTKVEIK
For the molecule B1, in test [1], the “IC50, pseudovirus neutralization” value came out at 0.0173 mg/L and the “IC80, pseudovirus neutralization” value came out at 0.0321 mg/L.

B2: MX837 tetravalent, trispecific antibody (A19-61, A19-46, A23-58H/A23-58L93VGLTG, A23-58H/A23-58L93VGLTG) (trispecific antibody)
chain 1: QTVVTQEPSFSVSPGGTVTLTCGLSSGSVSTAYFPSWYQQTPGQAPRTLIYGTNTRSSGVPDRFSGSILGNKAALTITGAQADDESDYYCVLYMGRGIVVFGGGTKLTVLGGSSGEIVLTQSPGTLSLSPGERATLSCRASQSVSSSYLAWYQQKPGQAPRLLIYSASSRATGIPDRFSGSGSGTDFTLTISRLEPEDFAVYFCQQYVGLTGWTFGQGTKVEIKGGGGSGGSGSGGGGSASGSGQMQLVQSGPEVKKPGTSVKVSCKASGFTFTSSAVQWVRQRQRLEWIGWIVVGSGNTNYAQKFQERVTITRDMSTSTAYMELSSLRSEDTAVYYCAAPNCSNVVCYDGFDIWGQGTMVTVSSGGSSGQVQLVESGGGVVQPGRSLRLSCAASGFTLSSYGMHWVRQAPGKGLEWVAVISYDGSNKYYVDSVKGRFTISRDNSKNTLYLQMNSLRAEDTAVYYCRWAYWELLPDYYYGMDVWGQGTTVTVSSASGGSGDKTHTCPPCPAPELLGGPSVFLFPPKPKDTLMISRTPEVTCVVVDVSHEDPEVKFNWYVDGVEVHNAKTKPREEQYNSYVVSVLTVLHQDWLNGKEYKCKVSNKALPAPIEKTISKAKGQPREPQVYTLPPCRDELTKNQVSLWCLVKGFYPSDIAVEWESNGQPENNYKTTPPVLDSDGSFFKKLTVDKSRWQQGNVFSCSVLHEALHSHYTQKSLSLSPG
chain 2: DIQMTQSPSSVSASVGDRVIITCRASQGISSWLAWYQQKPGKAPKVLIYDASSLQSGVPSRFSGSGYGTDFTLTISSLQPEDSATYYCQQAKSFPITFGQGTRLEIKGGSSGEIVLTQSPGTLSLSPGERATLSCRASQSVSSSYLAWYQQKPGQAPRLLIYSASSRATGIPDRFSGSGSGTDFTLTISRLEPEDFAVYFCQQYVGLTGWTFGQGTKVEIKGGGGSGGSGSGGGGSASGSGQMQLVQSGPEVKKPGTSVKVSCKASGFTFTSSAVQWVRQRQRLEWIGWIVVGSGNTNYAQKFQERVTITRDMSTSTAYMELSSLRSEDTAVYYCAAPNCSNVVCYDGFDIWGQGTMVTVSSGGSSGQVQLVESGGGVVQPGRSLRLSCAASGFTFSSYAFHWVRQAPGKGLEWVAVISYDGSNQYYADSVKGRFTISRDNSKNTLYLQMNSLRADDTAVYYCARDLAIAVAGTWHYYNGMDVWGQGTTVTVSSASGGSGDKTHTCPPCPAPELLGGPSVFLFPPKPKDTLMISRTPEVTCVVVDVSHEDPEVKFNWYVDGVEVHNAKTKPREEQYNSYVVSVLTVLHQDWLNGKEYKCKVSNKALPAPIEKTISKAKGQPREPQVCTLPPSRDELTKNQVSLSCAVKGFYPSDIAVEWESNGQPENNYKTTPPVLDSDGSFFLVSKLTVDKSRWQQGNVFSCSVLHEALHSHYTQKSLSLSPG
Turning to B2, the “IC50, pseudovirus neutralization” value turned out to be 0.001 µM in test [2] and 0.015 µM in test [3]. Moreover, the “IC80, pseudovirus neutralization” value turned out to be 0.003 µM in test [2] and 0.097 µM in test [3].

B3: MX830 + MX831 (other)
chain 1: QTVVTQEPSFSVSPGGTVTLTCGLSSGSVSTAYFPSWYQQTPGQAPRTLIYGTNTRSSGVPDRFSGSILGNKAALTITGAQADDESDYYCVLYMGRGIVVFGGGTKLTVLGGSSGEIVLTQSPGTLSLSPGERATLSCRASQSVSSSYLAWYQQKPGQAPRLLIYSASSRATGIPDRFSGSGSGTDFTLTISRLEPEDFAVYFCQQYGGLTGWTFGQGTKVEIKGGGGSGGSGSGGGGSASGSGQMQLVQSGPEVKKPGTSVKVSCKASGFTFTSSAVQWVRQRQRLEWIGWIVVGSGNTNYAQKFQERVTITRDMSTSTAYMELSSLRSEDTAVYYCAAPNCSNVVCYDGFDIWGQGTMVTVSSGGSSGQVQLVESGGGVVQPGRSLRLSCAASGFTLSSYGMHWVRQAPGKGLEWVAVISYDGSNKYYVDSVKGRFTISRDNSKNTLYLQMNSLRAEDTAVYYCRWAYWELLPDYYYGMDVWGQGTTVTVSSASGGSGDKTHTCPPCPAPELLGGPSVFLFPPKPKDTLMISRTPEVTCVVVDVSHEDPEVKFNWYVDGVEVHNAKTKPREEQYNSYVVSVLTVLHQDWLNGKEYKCKVSNKALPAPIEKTISKAKGQPREPQVYTLPPSRDELTKNQVSLTCLVKGFYPSDIAVEWESNGQPENNYKTTPPVLDSDGSFFKKLTVDKSRWQQGNVFSCSVLHEALHSHYTQKSLSLSPG
chain 2: DIQMTQSPSSVSASVGDRVIITCRASQGISSWLAWYQQKPGKAPKVLIYDASSLQSGVPSRFSGSGYGTDFTLTISSLQPEDSATYYCQQAKSFPITFGQGTRLEIKGGSSGEIVLTQSPGTLSLSPGERATLSCRASQSVSSSYLAWYQQKPGQAPRLLIYSASSRATGIPDRFSGSGSGTDFTLTISRLEPEDFAVYFCQQYGGLTGWTFGQGTKVEIKGGGGSGGSGSGGGGSASGSGQMQLVQSGPEVKKPGTSVKVSCKASGFTFTSSAVQWVRQRQRLEWIGWIVVGSGNTNYAQKFQERVTITRDMSTSTAYMELSSLRSEDTAVYYCAAPNCSNVVCYDGFDIWGQGTMVTVSSGGSSGQVQLVESGGGVVQPGRSLRLSCAASGFTFSSYAFHWVRQAPGKGLEWVAVISYDGSNQYYADSVKGRFTISRDNSKNTLYLQMNSLRADDTAVYYCARDLAIAVAGTWHYYNGMDVWGQGTTVTVSSASGGSGDKTHTCPPCPAPELLGGPSVFLFPPKPKDTLMISRTPEVTCVVVDVSHEDPEVKFNWYVDGVEVHNAKTKPREEQYNSYVVSVLTVLHQDWLNGKEYKCKVSNKALPAPIEKTISKAKGQPREPQVYTLPPSRDELTKNQVSLTCLVKGFYPSDIAVEWESNGQPENNYKTTPPVLDSDGSFFKKLTVDKSRWQQGNVFSCSVLHEALHSHYTQKSLSLSPG
As for B3, the “IC50, pseudovirus neutralization” value in test [4] worked out at 0.0215 µM; in test [5] it was 0.00845 µM; in test [6], 0.00391 µM; in test [7] it was 0.422 µM. In addition, the “IC80, pseudovirus neutralization” value is 0.0454 µM in test [4], 0.0306 µM in test [5], 0.0248 µM in test [6] and 3.82 µM in test [7].

B4: MX828 + MX829 (other)
chain 1: QTVVTQEPSFSVSPGGTVTLTCGLSSGSVSTAYFPSWYQQTPGQAPRTLIYGTNTRSSGVPDRFSGSILGNKAALTITGAQADDESDYYCVLYMGRGIVVFGGGTKLTVLGGSSGEIVLTQSPGTLSLSPGERATLSCRASQSVSSSYLAWYQQKPGQAPRLLIYSASSRATGIPDRFSGSGSGTDFTLTISRLEPEDFAVYFCQQYVGLTGWTFGQGTKVEIKGGGGSGGSGSGGGGSASGSGQMQLVQSGPEVKKPGTSVKVSCKASGFTFTSSAVQWVRQRQRLEWIGWIVVGSGNTNYAQKFQERVTITRDMSTSTAYMELSSLRSEDTAVYYCAAPNCSNVVCYDGFDIWGQGTMVTVSSGGSSGQVQLVESGGGVVQPGRSLRLSCAASGFTLSSYGMHWVRQAPGKGLEWVAVISYDGSNKYYVDSVKGRFTISRDNSKNTLYLQMNSLRAEDTAVYYCRWAYWELLPDYYYGMDVWGQGTTVTVSSASGGSGDKTHTCPPCPAPELLGGPSVFLFPPKPKDTLMISRTPEVTCVVVDVSHEDPEVKFNWYVDGVEVHNAKTKPREEQYNSYVVSVLTVLHQDWLNGKEYKCKVSNKALPAPIEKTISKAKGQPREPQVYTLPPSRDELTKNQVSLTCLVKGFYPSDIAVEWESNGQPENNYKTTPPVLDSDGSFFKKLTVDKSRWQQGNVFSCSVLHEALHSHYTQKSLSLSPG
chain 2: DIQMTQSPSSVSASVGDRVIITCRASQGISSWLAWYQQKPGKAPKVLIYDASSLQSGVPSRFSGSGYGTDFTLTISSLQPEDSATYYCQQAKSFPITFGQGTRLEIKGGSSGEIVLTQSPGTLSLSPGERATLSCRASQSVSSSYLAWYQQKPGQAPRLLIYSASSRATGIPDRFSGSGSGTDFTLTISRLEPEDFAVYFCQQYVGLTGWTFGQGTKVEIKGGGGSGGSGSGGGGSASGSGQMQLVQSGPEVKKPGTSVKVSCKASGFTFTSSAVQWVRQRQRLEWIGWIVVGSGNTNYAQKFQERVTITRDMSTSTAYMELSSLRSEDTAVYYCAAPNCSNVVCYDGFDIWGQGTMVTVSSGGSSGQVQLVESGGGVVQPGRSLRLSCAASGFTFSSYAFHWVRQAPGKGLEWVAVISYDGSNQYYADSVKGRFTISRDNSKNTLYLQMNSLRADDTAVYYCARDLAIAVAGTWHYYNGMDVWGQGTTVTVSSASGGSGDKTHTCPPCPAPELLGGPSVFLFPPKPKDTLMISRTPEVTCVVVDVSHEDPEVKFNWYVDGVEVHNAKTKPREEQYNSYVVSVLTVLHQDWLNGKEYKCKVSNKALPAPIEKTISKAKGQPREPQVYTLPPSRDELTKNQVSLTCLVKGFYPSDIAVEWESNGQPENNYKTTPPVLDSDGSFFKKLTVDKSRWQQGNVFSCSVLHEALHSHYTQKSLSLSPG
Consider B4, for which the “IC50, pseudovirus neutralization” value in test [4] was determined as 0.015 µM; in test [5], 0.01 µM; in test [6], 0.00526 µM; in test [7], 0.538 µM. For the same molecule, the “IC80, pseudovirus neutralization” value is 0.0404 µM in test [4], 0.0311 µM in test [5], 0.0225 µM in test [6] and 1.97 µM in test [7].

B5: E8 (antibody, V domains shown)
VH: QVTLRESGPALVKPTQTLTLTCTFSGFSLSTRGVCVSWIRQPPGKALEWLAFIDWDDDKYYNTSLKTRLTISKDTSKNQVVLTMTNVHPVDTATYYCARISSHHGSSWCTTFDYWGQGALVTVSA
VL: DTVMTQSPLSLPVTPGEPASISCRSSQSLLNSNGYNYLDWYVQKPGQSPQLLIYLGSNRASGVPDRFSGSGSGTDFTLKISRVEAEDVGVYYCMQPLQTPLFTFGPGTKVEIK
For B5, in test [1], the “IC50, pseudovirus neutralization” value is 0.00681 mg/L and the “IC80, pseudovirus neutralization” value was 0.0333 mg/L.

These data come from patent publication US20240109955A1 (published 2024).
